The values below come from patent US20250387420A1, “Prevention of Nausea and Vomiting from Antibody-Drug Conjugates and other Long-Acting Emetogenics” (Helsinn Healthcare SA, priority 2024, published 2025).

This data set deals with patients with HER2-positive ABC treated with T-DXd. To be noted: at data cutoff; 59 patients.

In the case of trastuzumab deruxtecan [T-DXd], the “patients who discontinued T-DXd due to intractable nausea and vomiting” value was “no patients”.
